Compound potency records, mixed from different reports. Data source: NIAID ChemDB in PubChem.

All rows: tests in culture; organism: Cryptococcus neoformans

Conditions beyond the fields shown may differ between rows.

structure | method | strain or isolate | endpoint | value
O=C1/C(=C/c2ccc(O)cc2)CCc2ccccc21 |  | 25 | MIC | 100 µg/mL
COc1nc2c(c(-c3ccc(C)cc3)c1C#N)CSc1ccccc1-2 |  | Farwania | MIC | 3 µg/mL
C[C@@H](n1ncn(-c2ccc(OCC(F)(F)C(F)F)cc2)c1=O)[C@](O)(Cn1cncn1)c1ccc(F)cc1F |  | DUMC 135.97 | MIC | 0.125 µg/mL
C[C@@H](n1cnc2cc(Cl)ccc2c1=O)[C@](O)(Cn1cncn1)c1ccc(F)cc1F |  | Isolate 119.95 | MFC | 0.156 µg/mL
COc1ccccc1C1SCC(=O)N1CC(=O)O | broth dilution |  | EC50 | 79.49 µM
COc1ccccc1/C=C1\CSc2ccc(Cl)cc2C1=O |  | 25 | MIC | 1.5 µg/mL
C[C@H](n1nnnc1CCN1CCN(c2ccccc2)CC1)[C@](O)(Cn1cncn1)c1ccc(F)cc1F |  | LA314 | MIC | >16 µg/mL
C=CC[C@@H]1/C=C(/C)C[C@H](C)C[C@H](OC)[C@H]2O[C@@](O)(C(=O)C(=O)N3CCCC[C@H]3C(=O)O[C@H](/C(C)=C/[C@@H]3CC[C@@H](O)[C@H](OC)C3)[C@H](C)[C@@H](O)CC1=O)[C@H](C)C[C@@H]2OC |  | C21F3 | MIC | 100 µg/mL
Cn1nc(Cc2ccc(Cl)cc2)c2ccccc2c1=O | broth dilution | Clinical isolate (IM 972724) | MIC80 | 3.9 µg/mL
COC1CC2CCC(C)C(O)(O2)C(O)C(O)N2CCCCC2C(=O)OC(C(C)CC2CCC(O)C(OC)C2)CC(=O)C(C)/C=C(\C)C(O)C(OC)C(=O)C(C)CC(C)/C=C/C=C/C=C/1C |  | WILD TYPE | MIC | 3.12 µg/mL
CCC(C)n1ncn(-c2ccc(N3CCN(c4ccc(OC[C@H]5CO[C@](Cn6cncn6)(c6ccc(Cl)cc6Cl)O5)cc4)CC3)cc2)c1=O | broth dilution | Clinical isolate (IM 972724) | MIC | 0.25 µg/mL
N#CC1=C(N)OC2=C(CSc3ccc(Cl)cc32)C1c1cccc2ccccc12 |  | Farwania | MIC | 25 µg/mL
C[C@@H](c1nc(-c2ccc(C#N)cc2)cs1)[C@](O)(Cn1cnnc1)c1ccc(F)cc1F |  | A28201 | MIC | 0.015 µg/mL
Oc1ccc(O)c(C=Nc2ccccc2O)c1 | broth dilution | WP | MIC | 8 µg/mL
C[C@H]([C@](O)(Cn1cncn1)c1ccc(F)cc1F)S(C)(=O)=O |  | R718 (AZOLE-R) | MIC | 20 µM
CN[C@H]1CC[C@@H](c2ccc(Cl)c(Cl)c2)c2ccccc21 | broth dilution | Bt50 | MFC | 10 µg/mL
O=C1/C(=C/c2ccc3c(c2)OCO3)CSc2ccc(Cl)cc21 |  | 93/V | MIC | 12.5 µg/mL
COC1CC2CCC(C)C(O)(O2)C(=O)C(=O)N2CCCCC2C(=O)OC(C(C)CC2CCC(O)C(OC)C2)CC(=O)C(C)/C=C(\C)C(O)[C@@](OC)(N(O)C(=O)OCC(C)C)C(=O)C(C)CC(C)/C=C/C=C/C=C/1C |  | TOR1-1 | MIC | >100 µg/mL
CCOC(=O)c1c(C)nc(NCCCCNc2ccnc3cc(Cl)ccc23)nc1-c1ccc(F)cc1 |  | F-10 | MIC99 | 4 µg/mL
OC(Cn1cncn1)(Cn1nnnc1CCN1CCN(c2ccccc2Cl)CC1)c1ccc(F)cc1F |  | LA314 | MIC | 8 µg/mL
O=C1/C(=C/c2ccccc2)CSc2ccc(Cl)cc21 |  | 93/V | MIC | 50 µg/mL
CCOC(=O)c1c(C)nc(NCCCCNc2ccnc3cc(Cl)ccc23)nc1-c1ccccc1[N+](=O)[O-] |  | 27JF | MIC99 | 4 µg/mL
COc1ccccc1C1C(C#N)=C(N)OC2=C1CSc1ccccc12 |  | 93/V | MIC | 12.5 µg/mL
O=C(O)C(Cc1ccccc1)N1C(=O)CSC1c1c(Cl)cccc1Cl | broth dilution |  | EC50 | 12.16 µM
O=[N+]([O-])c1ccc(C=Nc2ccccc2O)cc1 | broth dilution | ATCC 62066 | MIC | 2.8 µg/mL
N#CC1=C(N)OC2=C(CSc3ccc(Cl)cc32)C1c1ccccc1 |  | Farwania | MIC | 12.5 µg/mL
Oc1ccccc1C=Nc1ccccc1O |  | ATCC 62066 | MIC99 | 2 µg/mL
CC(C)N=C(N)c1ccc2nc(-c3ccc4c(c3)Cc3cc(-c5nc6ccc(C(N)=NC(C)C)cc6[nH]5)ccc3-4)[nH]c2c1 |  | 9 strains | Geometric mean MFC | 1.03 µg/mL
COc1ccc2c(c1)C(=O)/C(=C/c1ccc(OC)c(OC)c1)CO2 |  | 25 | MIC | 1.5 µg/mL
O=C(O)CN1C(=O)CSC1c1c(Cl)cccc1Cl | broth dilution |  | EC50 | 52.91 µM
COc1ccc(-c2c(C#N)c(OC)nc3c2CSc2ccc(OC)cc2-3)cc1 |  | 25 | MIC | 50 µg/mL
OC(Cn1cncn1)(Cn1nnnc1CCN1CCN(c2ccc(F)cc2)CC1)c1ccc(F)cc1F |  | LA314 | MIC | >16 µg/mL
O=C1/C(=C/c2ccc3ccccc3c2)CSc2ccccc21 |  | 25 | MIC | 12.5 µg/mL
Cc1nc(NCCCCNc2ccnc3cc(Cl)ccc23)nc(-c2ccccc2)c1C(=O)OC(C)C |  | WP | MIC99 | 8 µg/mL
N#CC1=C(N)OC2=C(CSc3ccccc32)C1c1ccc2c(c1)OCO2 |  | 93/V | MIC | 50 µg/mL
Oc1ccccc1N=Cc1ccc2c(c1)OCO2 | broth dilution | VM-MCMMPI | MIC | 5.7 µg/mL
CCC(C)n1ncn(-c2ccc(N3CCN(c4ccc(OC[C@H]5CO[C@](Cn6cncn6)(c6ccc(Cl)cc6Cl)O5)cc4)CC3)cc2)c1=O |  | DUMC140.92 | MIC | 0.031 µg/mL
COc1ccc(/C=C2\CS(=O)c3ccccc3C2=O)cc1 |  | 25 | MIC | 50 µg/mL
C[C@@H](c1ncncc1F)[C@](O)(Cn1cncn1)c1ccc(F)cc1F | broth dilution | B 36535 | MIC | 0.031 µg/mL
CC(C(=O)O)N1C(=O)CSC1c1ccccc1 | broth dilution |  | EC50 | 43.28 µM
N#CC1=C(N)OC2=C(CSc3ccc(Cl)cc32)C1c1ccc2c(c1)OCO2 |  | 25 | MIC | 6 µg/mL
Oc1ccccc1N=Cc1cccc(O)c1O |  | F-10 | MIC99 | 4 µg/mL
COc1ccccc1N1CCN(CCc2nnn(C(C)C(O)(Cn3cncn3)c3ccc(F)cc3F)n2)CC1 |  | LA314 | MIC | 8 µg/mL

Blank or dashed fields: not listed here. A number after MIC or MFC names an inhibition level or a share of isolates. ECn: concentration that inhibits the pathogen or its effect by n%.